PubChem BioAssay AID1259414 | Drosophila RNAi Screening Center – 2018

Aim: 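Fly genes that alter Wolbachia amount inside host cells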 (primary screen)
System: Drosophila JW18 cells infected with Wolbachia
Reagent: long dsRNA against Drosophila genes, 0.25 µg dsRNA per well of a 384-well plate
Time to read-out: 5 days
Conditions: cells persistently infected with Wolbachia before knock-down; no added drug
Measured: 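Imaged fluorescence in situ signal for Wolbachia 23S rRNA per DAPI-counted host cell, given as a robust z-score within each plate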
Reading the numbers: Wolbachia per cell robust z: higher = more Wolbachia per host cell than the plate typical
Call rule: 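Active if absolute robust z reaches 1.5 in two or more of three replicates, leaving out multi- or no-target dsRNAs, genes unexpressed in JW18 and A1 wells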
The deposit covers about 24,000 reagents; shown is a random part of those that have a named target and a result. Over the whole deposit, about 1,210 (5%) are marked active. 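Inactive calls also include excluded dsRNAs with several or no targets, genes unexpressed in JW18, and well A1, regardless of score.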 No sequences are given here.

Gene	amplicon	Wolbachia per cell robust z, rep 1	Wolbachia per cell robust z, rep 2	Wolbachia per cell robust z, rep 3	activity call
CG1677	DRSC18116	0.208	-1.41	0.0411	inactive
Tango11 (Transport and Golgi organization 11)	DRSC03890	-0.671	-0.508	-1.93	inactive
Tango11 (Transport and Golgi organization 11)	DRSC03892	-1.32	-0.832	-2.55	inactive
AttA (Attacin-A)	DRSC05926	0.768	0.169	0.326	inactive
AttA (Attacin-A)	DRSC27311	0.417	0.42	0.913	inactive
CG16727	DRSC15139	-1.29	-2.68	-5.7	inactive
CG16727	DRSC26820	0.383	0.0901	-0.717	inactive
CG15185	DRSC12565	-0.234	-1.76	-1.09	inactive
DJ-1alpha	DRSC07005	0.0916	-0.955	-0.307	inactive
mRpS22 (mitochondrial ribosomal protein S22)	DRSC14488	-0.317	-0.638	-0.406	inactive
mRpS22 (mitochondrial ribosomal protein S22)	DRSC28355	0.424	-0.662	-0.679	inactive
Acp53Ea (Accessory gland protein 53Ea)	DRSC05916	0.148	1.05	0.123	inactive
RhoGAP71E (Rho GTPase activating protein at 71E)	DRSC10232	0.566	0.647	-0.606	inactive
RhoGAP71E (Rho GTPase activating protein at 71E)	DRSC10838	-0.682	2.3	0.36	inactive
RhoGAP71E (Rho GTPase activating protein at 71E)	DRSC29082	-0.16	0.561	0.533	inactive
CG13102	DRSC02202	-3.53	-0.0976	0.823	inactive

Targets above whose target name starts with T or t:
Gene	amplicon	Wolbachia per cell robust z, rep 1	Wolbachia per cell robust z, rep 2	Wolbachia per cell robust z, rep 3	activity call
Tango11 (Transport and Golgi organization 11)	DRSC03890	-0.671	-0.508	-1.93	inactive
Tango11 (Transport and Golgi organization 11)	DRSC03892	-1.32	-0.832	-2.55	inactive

The listing continues.
Gene	amplicon	Wolbachia per cell robust z, rep 1	Wolbachia per cell robust z, rep 2	Wolbachia per cell robust z, rep 3	activity call
Oatp26F (Organic anion transporting polypeptide 26F)	DRSC02149	0.215	0.212	0.454	inactive
Oatp26F (Organic anion transporting polypeptide 26F)	DRSC02272	-1.75	-1.07	0.445	inactive
Oatp26F (Organic anion transporting polypeptide 26F)	DRSC02695	-0.805	0.227	-2.41	inactive
Oatp26F (Organic anion transporting polypeptide 26F)	DRSC27346	0.744	1.22	0.644	inactive
ZnT63C (Zinc transporter 63C)	DRSC08032	-0.0833	-0.225	-0.341	inactive
ZnT63C (Zinc transporter 63C)	DRSC08033	-0.444	0.276	-0.509	inactive
ZnT63C (Zinc transporter 63C)	DRSC08519	-2.5	-1.42	0.158	inactive
ZnT63C (Zinc transporter 63C)	DRSC21989	0.525	-0.221	-0.623	inactive
ZnT63C (Zinc transporter 63C)	DRSC23528	-0.604	0.409	0.0465	inactive
CG12170	DRSC12199	-2.53	0.235	-0.131	inactive
CG12170	DRSC41442	-0.138	0.207	-1.88	inactive
PAN3 (Poly(A) specific ribonuclease subunit PAN3)	DRSC08190	-0.0847	-0.0281	0.707	inactive
PAN3 (Poly(A) specific ribonuclease subunit PAN3)	DRSC25366	-1.03	-0.316	-0.813	inactive
PAN3 (Poly(A) specific ribonuclease subunit PAN3)	DRSC41596	1.04	-0.0607	0.911	inactive
put (punt)	DRSC17039	0.17	1.02	1.73	inactive
put (punt)	DRSC40736	0.086	-1.23	0.00303	inactive
puc (puckered)	DRSC17034	3.32	0.626	4.6	active
puc (puckered)	DRSC26308	0.316	-0.359	-0.577	inactive
CG13231	DRSC06351	-1.14	-3.55	-0.505	inactive
CG13231	DRSC26554	-4.56	-1.68	-1.74	inactive
polo	DRSC11384	-4.03	-2.21	-0.00529	active
polo	DRSC22359	1.09	0.373	0.617	inactive
polo	DRSC38944	-0.207	-0.463	0.162	inactive
slam (slow as molasses)	DRSC03240	-0.861	0.918	-0.358	inactive
mthl4 (methuselah-like 4)	DRSC06998	-2.95	-0.396	-2.8	active
CG12795	DRSC00354	-0.026	-0.535	-0.641	inactive
verm (vermiform)	DRSC11038	0.0819	-1.76	-4.44	inactive
verm (vermiform)	DRSC24665	0.385	0.291	-0.462	inactive
CG15711	DRSC06582	0.271	0.213	0.963	inactive
hng2 (hinge2)	DRSC16412	0.898	-1.25	1.94	inactive
